In article PMC3571957:
For at least one entry, the source does not settle the construct or the ends of the probe.

Tested on: SSBXoc (single-stranded DNA-binding protein) (Xanthomonas oryzae pv. oryzicola RS105)
Assay: EMSA
Conditions: recombinant protein, protein details: GST tag removed by thrombin (pET41a(+)), label: 3' biotin

TTCGCGCGTACAAGCACAATTTCGCG [DNA1]: binds.

AATAGCCCATCATCACCAGAAG [DNA2]: binds.
